The values that follow come from patent US20250171511A1, “ANTIVIRAL PEPTIDES AND METHODS OF USE THEREOF” (Versitech Limited, priority 2021, published 2025).

Where a SMILES comes first, the peptide text is derived from it.

The test system of the experiment is SARS-CoV-2. The experiment in a line: Plaque reduction assay against SARS-CoV-2. The experiment is classed as cell-based. Particulars: PBS (150 mM) versus […]). Background: Plaques are areas of infected cells; plaque reduction assays count them against a control.

Take `CC[C@H](C)[C@H](NC(=O)[C@H](C)NC(=O)CN)C(=O)N[C@@H](CS)C(=O)N[C@@H](Cc1c[nH]cn1)C(=O)N1CCC[C@H]1C(=O)N[C@H](C(=O)N[C@@H](Cc1ccccc1)C(=O)N[C@@H](CS)C(=O)N1CCC[C@H]1C(=O)N[C@@H](CCCNC(=N)N)C(=O)N[C@@H](CCCNC(=N)N)C(=O)N[C@@H](Cc1ccc(O)cc1)C(=O)N[C@@H](CCCCN)C(=O)N[C@@H](CCC(N)=O)C(=O)N[C@H](C(=O)NCC(=O)N[C@H](C(=O)N[C@@H](CS)C(=O)NCC(=O)N[C@@H](CC(C)C)C(=O)N1CCC[C@H]1C(=O)NCC(=O)N[C@H](C(=O)N[C@@H](CCCCN)C(=O)N[C@@H](CS)C(=O)N[C@@H](CS)C(=O)N[C@@H](CCCCN)C(=O)N[C@@H](CCCCN)C(=O)N1CCC[C@H]1C(=O)O)[C@@H](C)O)[C@@H](C)O)[C@@H](C)CC)C(C)C` [Peptide H30] (H-GAICHPVFCPRRYKQIGTCGLPGTKCCKKP-OH; N-terminus and C-terminus assumed): the “antiviral activity against SARS-CoV-2” value was “inhibited SARS-CoV-2 in PBS but more effective in low salt condition”.
